Laboratory results published in patent US20210061889A1.

Target: Ebola Zaire glycoprotein (GP) on Ebola virus-like particles (VLP) (Zaire Ebola virus) (UniProt Q05320)
Assay: cell-based or functional assay

Substance	fraction of mobile VLP in human airway mucus [%]	<Deff> of Ebola VLP in human airway mucus, reduction relative to no Ab [fold]	fraction of mobile Ebola VLP in human airway mucus [%]
ZMapp™ cocktail (c2G4, c116C6FR1 and c4G7 mixed at a 1:1:1 ratio)	29		
c2G4 (antibody)		28	27
c4G7 (antibody)		25	30
c116C6FR1 (antibody)		22	33
